Results of unrelated studies side by side (data: NIAID ChemDB).

All rows: growth or infection tests; organism: Mycobacterium tuberculosis

A number after MIC or MFC names an inhibition level or a share of isolates. MIC bound: limit read from a one-dose screen. An empty or dashed field is not shown. ECn is the concentration giving n% inhibition of infection, replication or growth. Percent inhibition refers to the dose given; in toxicity tests it is the harm to the cells. Two numbers with a dash give a range or band. Lines come from different laboratories, so protocols vary.

smiles,mutations,tested at,strain,cells,endpoint,method,result
CC1SC(c2ccccc2)=NC(C)(O)C1C,,6.25 µg/mL,H37Rv,,inhibition,,0%
O=C1NC(=S)N/C1=C\c1c(F)cccc1Cl,,,H37Rv,,EC50,BACTEC,>6.25 µg/mL
CCN(CC)C(=S)S[Se](SC(=S)N(CC)CC)(SC(=S)N(CC)CC)SC(=S)N(CC)CC,,,H37Rv,,MIC bound,BACTEC,≤128 µg/mL
CC(=O)Nc1ccc2c(-c3ccccc3)cc(=O)[nH]c2n1,,,H37Rv,,EC50,,>12.5 µg/mL
CN(C)CCNC(=O)c1cccc2c1Oc1c(cccc1[N+](=O)[O-])O2,,,H37Rv,,MIC bound,,>6.25 µg/mL
COc1cc(/C=C/[N+](=O)[O-])ccc1O,,,H37Rv,,MIC,,500 µg/mL
COc1c2ccoc2c(OC)c2oc(=O)ccc12,,,H37Rv,,MIC bound,BACTEC,>12.5 µg/mL
CC(=O)Nc1ccccc1Oc1ccccc1O,,,H37Rv,,MIC,,250–1000 µg/mL
CC(=O)Nc1ccc2c(-c3ccccc3)cc(Cl)nc2n1,,12.5 µg/mL,H37Rv,,inhibition,,0%
CC(=O)OC/C=C(\C)CC/C=C(\C)CC/C=C(\C)CCC=C(C)C,,,H37Rv,,MIC,resazurin,3.13 µg/mL
CN1CCN(c2cc3c(cc2F)c(=O)c(C(=O)O)cn3-c2ccc(N)cc2F)CC1,,6.25 µg/mL,H37Rv,,inhibition,BACTEC,100%
CC1OC(OC2C(OC(=O)C34CCC(C)(C)CC3C3=CCC5C6(C)CC(O)C7OC8OC(CO)C(O)C(O)C8OC8OCC(O)C(O)C8OC(=O)CC(C)(O)CC(=O)OCC7(C)C6CCC5(C)C3(C)CC4)OCC(O)C2O)C(O)C(OC2OCC(O)C(O)C2O)C1O,,200 µM,,,inhibition,fluorescence,0%
COC(=O)N[C@@H]1[C@H](C)O[C@@H](OC2C/C=C(\C)[C@H]3C=C[C@H]4[C@H](OC5C[C@@H](OC6C[C@@H](O)[C@@H](OC7C[C@@H](O)[C@@H](OC)[C@H](C)O7)[C@H](C)O6)[C@@H](O)[C@H](C)O5)[C@H](C)C[C@@H](C)[C@@H]4[C@@]3(C)/C(O)=C3/C(=O)OC4(C[C@H](C)C(CO)=C[C@H]4/C=C\2C)C3=O)C[C@@]1(C)N,,,H37Ra,,MIC90,MTT,1.3 µM
O=C1NC(=S)N/C1=C/c1cccc(F)c1,,,H37Rv,,EC50,BACTEC,<6.25 µg/mL
NC(=O)c1cn(-c2ccc(N)cc2F)c2cc(N3CCNCC3)c(F)cc2c1=O,,6.25 µg/mL,H37Rv,,inhibition,BACTEC,1%
O=C1NC(=S)N/C1=C/c1cccc(OCc2ccc(Cl)cc2Cl)c1,,6.25 µg/mL,H37Rv,,inhibition,BACTEC,84%
Cc1coc2c1C(=O)C(=O)c1c-2ccc2c1CCCC2(C)C,,200 µM,,,inhibition,fluorescence,25.63%
Cc1nc(Nc2ccccc2[N+](=O)[O-])sc1C(=O)CC(=O)C(=O)Nc1c(C(C)C)cccc1C(C)C,,,H37Rv,,MIC bound,resazurin,>6.25 µg/mL
C/C(=C\COC1CCCCO1)CC/C=C(\C)CSc1ccccc1,,6.25 µg/mL,H37Rv,,inhibition,resazurin,20%
Cl.Cl.Cl.c1ccc(-c2cc(N3CCNCC3)nc3ncccc23)cc1,,,H37Rv,,EC50,,>12.5 µg/mL
CC1CCC2(OC1)OC1CC3C4CCC5CC(O)CCC5(C)C4C(O)CC3(C)C1C2C,,12.5 µg/mL,H37Rv,,inhibition,BACTEC,13%
CO[C@H]1/C=C/O[C@@]2(C)Oc3c(C)c(O)c4c(O)c(c5c(c4c3C2=O)NC2(CCN(CC(C)C)CC2)N=5)=NC(=O)/C(C)=C\C=C\[C@H](C)[C@H](O)[C@@H](C)[C@@H](O)[C@@H](C)[C@H](OC(C)=O)[C@@H]1C,,,12 (rifampicin-susceptible),,MIC,,≤0.062 µg/mL
CCCN=Cc1cnc(C#N)c(N)n1,,,H37Rv,,MIC,BACTEC,≥12.5 µg/mL
CO[C@H]1/C=C/O[C@@]2(C)Oc3c(C)c(O)c4c(O)c(c(/C=N/N5CCN(C)CC5)c(O)c4c3C2=O)NC(=O)/C(C)=C\C=C\[C@H](C)[C@H](O)[C@@H](C)[C@@H](O)[C@@H](C)[C@H](OC(C)=O)[C@@H]1C,Multidrug-resistant,,FJ05120,,MIC,resazurin,>256 µg/mL
CC1(C)CC[C@]2(C(=O)O)CC[C@]3(C)C(CC[C@@H]4[C@@]5(C)C[C@H](O)CC(C)(C)[C@@H]5CC[C@]43C)[C@@H]2C1,,,EMB-R (ATCC 35837),,MIC,resazurin,25 µg/mL
CC(C)=CCC/C(C)=C/CC/C(C)=C/CC/C(C)=C/COC1CCCCO1,,6.25 µg/mL,H37Rv,,inhibition,resazurin,3%
O=C(NCc1ccc(N2CCN(S(=O)(=O)C(F)(F)F)C=N2)c(F)c1)c1c(C(F)F)nc2cc(F)c(Cl)cn12,,,,,EC50,GFP,0.0042 µM
CCn1cc(C(=O)O)c(=O)c2cc(F)c(N3CCN(CC(=O)c4ccccc4)CC3)c(F)c21,,,H37Rv,VERO,MIC,BACTEC,3.13 µg/mL
O=C1NC(=S)N/C1=C/c1cc(F)cc(F)c1,,6.25 µg/mL,H37Rv,,inhibition,BACTEC,55%
CCOc1ccc(NC(=S)Nc2ccc(OCC(C)C)cc2)cc1,,,H37RV #225,,MIC,,7.8 µg/mL
CCN(CC)c1ccc2nc3c4ccccc4c(=NC(=O)c4ccccc4-c4c5ccc(N(CC)CC)cc5[o+]c5cc(N(CC)CC)ccc45)cc-3oc2c1.[Cl-],,,ETA-R,,MIC,,1.6 µg/mL
CCOC(=O)N1CCN(c2cc(-c3ccccc3)c3cccnc3n2)CC1,,12.5 µg/mL,H37Rv,,inhibition,,0%
CCOC(=O)/C=C/c1ccc(OC)cc1,,,BTB09-382,,MIC,resazurin,485 µM
COc1ccccc1Oc1ccc(C=O)cc1[N+](=O)[O-],,,H37Rv,,MIC,,500–1000 µg/mL
O=C1C=C2C(=NC34CCCCC3C(c3ccccc3)C3=C(c5ccccc5CC3)N24)c2ccccc21,,12.5 µg/mL,H37Rv,,inhibition,BACTEC,90%
C=C1CCC2C(C)(C)CCC[C@@]2(C)[C@@H]1CC/C(C)=C/CO,,6.25 µg/mL,H37Rv,,inhibition,resazurin,65%
CCN(CC)CCOc1ccc(NC(=S)Nc2ccc(OCC(C)C)cc2)cc1,,,Ravenel #226,,MIC,,16.6 µg/mL
O=C1NC(=S)N/C1=C/c1cccc(O)c1,,6.25 µg/mL,H37Rv,,inhibition,BACTEC,11%
COC1=NN(c2ccc(CNC(=O)c3c(C(F)F)nc4ncccn34)cc2F)CCN1S(=O)(=O)C(F)(F)F,,,,,EC50,GFP,0.0035 µM
CCn1cc(C(=O)O)c(=O)c2cc(F)c(N3CCN(C(=O)c4ccc(Cl)cc4)CC3)cc21,,6.25 µg/mL,H37Rv,,inhibition,BACTEC,24%
c1ccc2c(c1)nnn1c3cnccc3nc21,,,H37Rv,,MIC,BACTEC,1.56 µg/mL
C/C(=C\CC/C(C)=C/COC1CCCCO1)CO,,6.25 µg/mL,H37Rv,,inhibition,resazurin,4%
Nc1ccc2c(-c3ccccc3)cc(=O)[nH]c2n1,,,H37Rv,,EC50,,>12.5 µg/mL
O=C1NC(=S)N/C1=C/c1cccc(Cl)c1,,,H37Rv,,EC50,BACTEC,<6.25 µg/mL
CCOC(=O)N1CCN(c2ccc3c(-c4ccccc4)cc(=O)[nH]c3n2)CC1,,,H37Rv,,EC50,,>12.5 µg/mL
C=CC(C)(O)CCC=C(C)C,,6.25 µg/mL,H37Rv,,inhibition,resazurin,10%
NC(=O)c1cnccn1,,,M4812/NIACIN+,,MIC,,2048 µg/mL
Nc1ccc(-n2cc(C(=O)O)c(=O)c3cc(F)c(N4CCNCC4)cc32)c(F)c1,,6.25 µg/mL,H37Rv,VERO,inhibition,BACTEC,100%
COc1cc(O)c2c(O)c3c(=O)cc(C)oc3cc2c1,,,RMP-R,,MIC,,6.3 µg/mL
CCc1nc2ccc(Cl)cn2c1C(=O)NCc1ccc(N2CCN(c3nccs3)C=N2)cc1,,,,,EC50,GFP,0.013 µM
Cc1cccc2c1-c1c(C)cccc1NC(=O)CCCCCCCCC(=O)N2,,,H37Rv,,MIC bound,resazurin,>6.25 µg/mL
CCCCCC1CC(C)(O)N=C(c2ccccc2)S1,,6.25 µg/mL,H37Rv,,inhibition,,77%
CCOC(=O)N1CCN(c2ccc3c(-c4ccccc4)cc(N4CCN(C(=O)OCC)CC4)nc3n2)CC1,,,H37Rv,,EC50,,<12.5 µg/mL
COc1ccc(CC(=S)N2CCOCC2)cc1Br,,,H37Rv,,MIC,,31.25 µg/mL
O=C1NC(=S)N/C1=C/c1ccc(Cl)c(Cl)c1,,6.25 µg/mL,H37Rv,,inhibition,BACTEC,66%
O=S1(=O)CC(N2CCCCC2)C2=C(O1)c1ccccc1SC2,,12.5 µg/mL,H37Rv,,inhibition,BACTEC,-37%
O=c1c(O)c(-c2cc(O)c(O)c(O)c2)oc2cc(O)cc(O)c12,,200 µM,,,inhibition,fluorescence,84.5%
CCN(CC)CCCNc1cc(C)nc(C)c1,,6.25 µg/mL,H37Rv,,inhibition,resazurin,-5%
COc1ccc(OC)c(/C=C2/NC(=S)NC2=O)c1,,,H37Rv,,EC50,BACTEC,<6.25 µg/mL
CC1OC(OC2C(OC3CCC4(C)C(CCC5(C)C4CC=C4C6CC(C)(C)CCC6(C(=O)OC6OC(COC7OC(CO)C(O)C(O)C7O)C(O)C(O)C6O)CCC45C)C3(C)CO)OCC(O)C2O)C(O)C(O)C1O,,200 µM,,,inhibition,fluorescence,0%
COc1ccc(-c2nc3c(=O)n(C)c(=O)nc-3n(C)n2)cc1OC,,,H37Rv,,MIC bound,BACTEC,≤12.5 µg/mL
CCn1cc(C(=O)O)c(=O)c2cc(F)c(N3CCN(CC(C)=O)CC3)c(F)c21,,,H37Rv,VERO,MIC,BACTEC,3.13 µg/mL
O=c1cc(-c2ccccc2)oc2cc(O)c(O)c(O)c12,,200 µM,,,inhibition,fluorescence,84.03%
OC12CCCC(C1)SC(c1ccccc1)=N2,,,H37Rv,,EC50,,<6.25 µg/mL
O=C1c2cscc2C(=O)c2c(Cl)sc(Cl)c21,,6.25 µg/mL,H37Rv,,inhibition,resazurin,37%
CCCCOc1ccc(NC(=S)Nc2ccc(OCCN(CC)CC)cc2)cc1,,,Ravenel #226,,MIC,,16.6 µg/mL
Cn1nc(NC(=O)Nc2cc(C(=O)O)n(C)n2)cc1C(=O)O,,,H37Rv,,MIC bound,resazurin,>6.25 µg/mL
COC(=O)N[C@@H]1[C@H](C)O[C@@H](OC2C/C=C(\C)[C@H]3C=C[C@H]4[C@H](OC5C[C@@H](OC6C[C@@H](O)[C@@H](OC7C[C@@H](O)[C@@H](OC)[C@H](C)O7)[C@H](C)O6)[C@@H](O)[C@H](C)O5)[C@H](C)C[C@@H](C)[C@@H]4[C@@]3(C)/C(O)=C3/C(=O)OC4(C[C@H](C)C(C=O)=C[C@H]4/C=C\2C)C3=O)C[C@@]1(C)[N+](=O)[O-],,,H37Ra,,MIC90,MTT,2.6 µM
C=C1CCCC(C)(C)[C@@H]1CC/C(C)=C/CC/C(C)=C/CO,,6.25 µg/mL,H37Rv,,inhibition,resazurin,36%
Cc1cc(=O)n2c3c(c4c(cc13)c(CN(C)C)cc(=O)n4C)OC2.Cl,,,H37Rv,,MIC bound,BACTEC,>12.5 µg/mL
CCc1nc2sc(C)cn2c1C(=O)NCc1ccc(N2CCN(S(=O)(=O)C(F)(F)F)C=N2)cc1,,,,,EC50,GFP,0.0032 µM
CCOC(=O)c1cn(-c2ccc(N)cc2)c2cc(N3CCN(C)CC3)c(F)cc2c1=O,,6.25 µg/mL,H37Rv,,inhibition,BACTEC,0%
COC(=O)Cc1cc(I)c(Oc2cc(C=O)cc(OC)c2OC(C)=O)c(I)c1,,,H37Rv,,MIC,,31.25–62.5 µg/mL
CC1(O)CCSC(c2ccccc2)=N1,,,H37Rv,,EC50,,>6.25 µg/mL
CC1=CC2c3c([nH]c(=S)[nH]c3=O)OC(C)(C)C2CC1,,12.5 µg/mL,H37Rv,,inhibition,BACTEC,-26%
CN[C@@H]1[C@H](O[C@H]2[C@H](O[C@H]3[C@H](O)[C@@H](O)[C@H](N=C(N)N)[C@@H](O)[C@@H]3N=C(N)N)O[C@@H](C)[C@]2(O)C=O)O[C@@H](CO)[C@H](O)[C@H]1O,,,MTB9 (RIF-R),,MIC,,1.25 µg/mL
CCn1cc(C(=O)O)c(=O)c2cc(F)c(N3CCN(C/C(C)=N/O)CC3)c(F)c21,,6.25 µg/mL,H37Rv,,inhibition,BACTEC,34%
CCCC/C(C)=N/NC(=S)SC,,128 µg/mL,H37Rv,,inhibition,BACTEC,100%
NC[C@@H]1O[C@H](O[C@H]2[C@@H](O)[C@H](O[C@@H]3[C@@H](O)[C@H](N)C[C@H](N)[C@H]3O[C@H]3O[C@H](CO)[C@@H](O)[C@H](O)[C@H]3N)O[C@@H]2CO)[C@H](N)[C@@H](O)[C@@H]1O,,,MTB23 (S),,MIC,,<0.09 µg/mL
CN1C(=O)NC2(C1=O)C(=O)N(C)C(=O)N2C,,,H37Rv,,MIC bound,BACTEC,>12.8 µg/mL
O=C1NC(=S)N/C1=C/c1cccc2ccccc12,,,H37Rv,,EC50,BACTEC,>6.25 µg/mL